Read-outs that look alike come from different tables or passages of the source.
Target: SARS-CoV-2 M^pro (Severe acute respiratory syndrome coronavirus 2, UniProt P0DTD1)
Assay: M^pro enzyme inhibition assay, proteolytic cleavage of fluorescent peptide reporter, Ki by Morrison equation
Format: biochemical

Structure (SMILES) | Ki [nM] | Ki (read-out: Mpro Ki) [nM]
CCC[C@H](NC(=O)c1cccc2nc(-c3cncc4ccccc34)n(C3CCC3)c12)c1ccc(OC(F)F)cc1 | 67 | 71
CCC[C@H](NC(=O)c1cccc2nc(-c3cccnc3)n(CCCC(=O)NC)c12)c1ccc(C(F)(F)F)cc1 | – | 805
